Patent US12122815B2 (TAKEDA PHARMACEUTICAL COMPANY LIMITED, priority 2018, dated 2024)

Assay: general procedure: Fmoc solid-phase peptide synthesis; Sieber amide resin; DIPCDI/Oxyma
Conditions: whole synthesis, scale 0.01 mmol, TFA salt; acetate after ion exchange

With “Tyr-Aib-Glu-Gly-Thr-Val-Val-Ser-Leu-Tyr-Ser-Ile-Aib-Leu-Asp-Lys-Gln-Ala-Gln-Aib-Glu-Phe-Val-Lys-Trp-Leu-Leu-Lys-Gly-Gly-Pro-Ser-Ser-Gly-Ala-Pro-Pro-Pro-Ser-Lys(Heda-Gly-Gly-Gly-Gly-)” the isolated mass was 1.0 mg.
